Results of unrelated studies side by side (data: NIAID ChemDB).

All rows: tests on isolated targets; species: HIV-1; protein: Reverse transcriptase; measure: IC50

Conditions beyond the fields shown may differ between rows.

smiles	strain or isolate	changes	method	value
CCN1c2ncc(CCOc3ccc(C(=O)O)c4c3CCC4)cc2C(=O)N(C)c2cccnc21		RT-V106A	nucleotide incorporation / radiometric	0.1–1 µM
O=[N+]([O-])c1ccc2c(c1)CN(c1nn3c(C(F)F)nnc3c3ccccc13)CC2	KER2008		RT activity / fluorescence	6.22 µM
CCN1c2ncc(CCOc3ccc(C(=O)Nc4ccc(C(=O)O)cc4)cc3C)cc2C(=O)N(C)c2cccnc21	IIIB	RT-K103N Y181C	nucleotide incorporation / radiometric	<0.05 µM
CCN1c2ncc(CCOc3ccc(CC(=O)O)c4c3CCCC4)cc2C(=O)N(C)c2cccnc21		RT-Y188L	nucleotide incorporation / radiometric	>1 µM
CC(C)(C)Nc1ccnnc1N1CCN(C(=O)c2cc3cc(O)ccc3[nH]2)CC1			nucleotide incorporation	<100 µM
CCN1c2ncc(CCc3ccncc3)cc2C(=O)N(C)c2ccc(=O)[nH]c21		RT-Y181C	nucleotide incorporation / radiometric	>1 µM
CC(C)Nc1cccnc1OCCOC(=O)c1cc2ccccc2[nH]1			nucleotide incorporation	<100 µM
CCc1cc(CCc2nc3ccccc3o2)c(=O)[nH]c1C		RT-Y188H	nucleotide incorporation	0.7722 µM
N#Cc1cc(Cl)cc(Oc2cc(F)c(Cl)c(OCc3[nH]nc4ncccc34)c2)c1			nucleotide incorporation / radiometric	<20 µM
Nc1ccc2c(c1)CN(c1nn3c(C4CC4)nnc3c3ccccc13)CC2	KER2008		RT activity / fluorescence	0.25 µM
CN(C)c1ccc2c(COc3ccc(Cl)c(Oc4cc(Cl)cc(C#N)c4)c3)[nH]nc2n1			nucleotide incorporation / radiometric	<20 µM
O=C(c1cc2ccccc2[nH]1)N1CCN(c2ncccc2N2CCCC2)CC1			nucleotide incorporation	<100 µM
COc1ccc2c(c1)CN(c1nn3c(-c4cccs4)nnc3c3ccccc13)CC2	IIIB		RT activity / fluorescence	20.7 µM
CCCNc1cccnc1N1CCN(C(=O)c2cc3cc(F)ccc3[nH]2)CC1			nucleotide incorporation	<100 µM
CCN1c2ncc(CCOc3ccc(C(C)C(=O)O)c4ccccc34)cc2C(=O)N(C)c2cccnc21		RT-K103N Y181C	nucleotide incorporation / radiometric	0.1–1 µM
CCNc1ccccc1N1CCN(C(=O)c2cc3ccccc3[nH]2)CC1			nucleotide incorporation	<100 µM
N#Cc1cc(Cl)cc(Oc2cc(OCc3[nH]nc4ncccc34)cc(F)c2Cl)c1			nucleotide incorporation / radiometric	<20 µM
CCN1c2ncc(CC(F)c3ccncc3)cc2C(=O)N(C)c2ccc(Cl)nc21	WT		nucleotide incorporation / radiometric	<1 µM
CCCNc1cccnc1N1CCN(Cc2cc(C)c(OC)c(C)c2)CC1			nucleotide incorporation	>100 µM
CCN1c2ncc(CCOc3ccc(C(=O)N(C)c4ccc(C(=O)O)cc4)cc3C)cc2C(=O)N(C)c2cccnc21	IIIB	RT-K103N Y181C	nucleotide incorporation / radiometric	0.05–0.1 µM
CCN1c2ncc(CCOc3ccc(C(=O)O)c4c3CCC4)cc2C(=O)N(C)c2ccc(Cl)nc21		RT-V106A	nucleotide incorporation / radiometric	0.1–1 µM
CNc1cccnc1N1CCN(C(=O)c2cc3cc(F)ccc3[nH]2)CC1			nucleotide incorporation	<100 µM
CCN1c2ncc(CCOc3ccc(-c4ccc(C)[n+]([O-])c4C)cc3C)cc2C(=O)N(C)c2cccnc21	IIIB		nucleotide incorporation / radiometric	<0.05 µM
CCOCn1c(Sc2ccccc2)c(CC)c(=O)[nH]c1=O			nucleotide incorporation	0.214 µM
CCN1c2ncc(CCc3ccnc(C(N)=O)c3)cc2C(=O)N(C)c2ccc(Cl)nc21		RT-Y181C	nucleotide incorporation / radiometric	<1 µM
COP(=O)(c1cc(C)cc(CCC#N)c1)c1c(C(N)=O)[nH]c2ccc(Cl)cc12			RT activity	0.343 µM
Cc1ccc2c(c1)CCN(c1nn3c(C4CC4)nnc3c3ccccc13)C2	IIIB		RT activity / fluorescence	0.19 µM
COc1cc2cc(C(=O)N3CCN(c4ncccc4NC(C)C)CC3)[nH]c2cc1OC			nucleotide incorporation	~100 µM
CCN1c2ncc(CC(O)c3ccncc3)cc2C(=O)N(C)c2ccc(F)nc21		RT-Y181C	nucleotide incorporation / radiometric	<1 µM
CCN1c2ncc(CCOc3ccc(C(=O)N(C)Cc4ccc(C(=O)O)cc4)cc3C)cc2C(=O)N(C)c2cccnc21	IIIB		nucleotide incorporation / radiometric	<0.05 µM
COc1ccc2c(c1)CN(c1nn3c(C(C)C)nnc3c3ccccc13)CC2	KER2008		RT activity / fluorescence	0.44 µM
NS(=O)(=O)c1ccc(NC(=O)COc2cc(Cl)cc(Oc3ccccc3)c2)c(Cl)c1			nucleotide incorporation / radiometric	<20 µM
COc1ccc2[nH]c(C(=O)N(C)CCN(C)c3ncccc3NC(C)C)cc2c1			nucleotide incorporation	<100 µM
CCN1c2ncc(CCOc3cccc4c3ccc[n+]4[O-])cc2C(=O)Nc2c(C)cc(Cl)nc21		RT-K103N P225H	nucleotide incorporation / radiometric	0.016 µM
c1ccc2c(c1)CCN(c1nn3c(-c4cscn4)nnc3c3ccccc13)C2	KER2008		RT activity / fluorescence	1.39 µM

For reference, 2 entries again:

smiles	strain or isolate	changes	method	value
CN(C)c1ccc2c(COc3ccc(Cl)c(Oc4cc(Cl)cc(C#N)c4)c3)[nH]nc2n1			nucleotide incorporation / radiometric	<20 µM
O=C(c1cc2ccccc2[nH]1)N1CCN(c2ncccc2N2CCCC2)CC1			nucleotide incorporation	<100 µM

An empty or dashed field is not shown. a–b is a range or a potency band. ICn is the concentration giving n% inhibition.